Experiments:
[1] = test system: PLA2 of Crotalus durissus terrificus (group II); experiment: Fluorometric anti-PLA2 assay, Crotalus durissus terrificus PLA2 (CB); conditions: read-out: Anti-PLA2 activity IC50 CB Fluo, fluorometric method
[2] = test system: PLA2 of Crotalus durissus terrificus (group II); experiment: UV spectrophotometric anti-PLA2 assay, Crotalus durissus terrificus PLA2 (CB); conditions: read-out: Anti-PLA2 activity IC50 CB Spectro, UV spectrophotometric method

## CCCCCCCCCCCCCCN1CCN(C(=O)c2ccc(Cc3noc(=O)[nH]3)cc2)CC1 [Example 8, 1-[4′-(4,5-dihydro-1,2,4(4H)-5-oxo-oxadiazol-3-ylmethyl)benzoyl]-4-tetradecylpiperazine]
[1]
  IC50: 3.8 µM
[2]
  IC50: 2.6 µM
